This is an account of results in ChEMBL document CHEMBL1145117, “Structures and cytotoxic properties of trichoverroids and their macrolide analogues produced by saltwater culture of Myrothecium verrucaria” (J Med Chem, 2003).

One assay relates to colon. The experiment in a line: Selectivity was evaluated against human ZH116 colon cell lines-CEM lymphocytic leukemia cell lines at a concentration of 31 ug/mL.
The species entered for a further assay is Homo sapiens. The experiment in a line: Activity relative to compound 3 (set to 1.0) was evaluated against H116 colon tumor cell lines. In kind it is functional.
Assay [1] deals with MC-38. The experiment in a line: Selectivity was evaluated against Murine tumor ZC38 colon adenocarcinoma cell lines- ZL1210 lymphocytic leukemia cell lines at a concentration of 31 ug/mL. Conditions: Mus musculus.
The subject of the next assay is NCI-H125. The experiment in a line: Selectivity was evaluated against human ZH125 lung non small cell carcinoma cell lines-CEM lymphocytic leukemia cell lines at a concentration of 31 ug/mL.
In the next assay the test system is L1210. The experiment in a line: Selectivity was evaluated murine tumor against ZL1210 lymphocytic leukemia cell lines- ZCFU-GM normal bone marrow cell lines at a concentration of 31 ug/mL. Conditions: Mus musculus.
The subject of assay [2] is MC-38. The experiment in a line: Selectivity was evaluated against murine tumor ZC38 colon adenocarcinoma cell lines- ZCFU-GM normal bone marrow cell lines at a concentration of 31 ug/mL. Conditions: Mus musculus.

Take `CC(=O)OC(C)[C@@H](O)/C=C/C=C\C(=O)O[C@@H]1CC2O[C@@H]3C=C(C)CC[C@]3(COC(=O)/C=C(\C)CCO)[C@]1(C)[C@]21CO1` (stereo partly specified) [13`-ACETYLTRICHOVERRIN B]: the Selectivity in the assay on colon is -150 zone unit; with MC-38 [1], -400 zone unit; with NCI-H125, 400 zone unit; in the assay on L1210 it was 300 zone unit; with MC-38 [2], -100 zone unit. Besides, the Relative activity in the assay listed under Homo sapiens turned out to be 9.
